# Experiments:
# Assay in all cases: cell-based or functional assay
# [1] = molecular target: HIV-1 Env of isolate MG RM-C-004 (subtype C) (HIV-1)
# [2] = molecular target: HIV-1 Env of isolate MG RM-C-005 (subtype C) (HIV-1)
# [3] = molecular target: HIV-1 Env of isolate MG RM-C-006 (subtype C) (HIV-1)
# [4] = molecular target: HIV-1 Env of isolate MG RM-C-007 (subtype C) (HIV-1)
# [5] = molecular target: HIV-1 Env of isolate MG RM-C-012 (subtype C) (HIV-1)
# [6] = molecular target: HIV-1 Env of isolate MG RM-C-015 (subtype C) (HIV-1)
# [7] = molecular target: HIV-1 Env of isolate MG RM-C-017 (subtype C) (HIV-1)
binder,measurement,setting,value
"1496_C09 (PG9) (TCN-109) (antibody, V domains shown) VH: QRLVESGGGVVQPGSSLRLSCAASGFDFSRQGMHWVRQAPGQGLEWVAFIKYDGSEKYHADSVWGRLSISRDNSKDTLYLQMNSLRVEDTATYFCVREAGGPDYRNGYNYYDFYDGYYNYHYMDVWGKGTTVTVSS VL: QSALTQPASVSGSPGQSITISCNGTSNDVGGYESVSWYQQHPGKAPKVVIYDVSKRPSGVSNRFSGSKSGNTASLTISGLQAEDEGDYYCKSLTSTRRRVFGTGTKLTVLG","IC50 (µg/mL), pseudovirus neutralization",[1],2.01 µg/mL
same,"IC50 (µg/mL), pseudovirus neutralization",[2],8.74 µg/mL
same,"IC50 (µg/mL), pseudovirus neutralization",[3],0.427 µg/mL
same,"IC50 (µg/mL), pseudovirus neutralization",[4],0.064 µg/mL
same,"IC50 (µg/mL), pseudovirus neutralization",[5],0.61 µg/mL
same,"IC50 (µg/mL), pseudovirus neutralization",[6],0.427 µg/mL
same,"IC50 (µg/mL), pseudovirus neutralization",[7],2.69 µg/mL
